# Earlier results in US20230137306A1 (priority 2020, published 2023).
# Target: RNA-dependent RNA polymerase of Influenza A virus subtype H1N1 (Influenza A virus, UniProt P03431)
# Conditions: via lethal mutation; cited from earlier work
smiles,measurement,value
NC(=O)c1nc(F)c[nH]c1=O [favipiravir],inhibition of viral RNA-dependent RNA polymerase activity,inhibits the activity
